The values that follow come from US20220153704A1 (priority 2019, published 2022).

This series can be described thus: Evaluation of solid state stability (XRPD and HPLC after storage).

SMILES strings stand for the structures.

As for `CCN1C[C@]2(COC)CC[C@H](OC)[C@]34C5C[C@]6(O)[C@@H](OC)C[C@@](OC(C)=O)(C5[C@H]6OC(=O)c5ccc(OC)cc5)[C@H](C13)[C@H](OC)[C@H]24` (stereo partly drawn) [crystalline form E, (1α,6α,14α,16β)tetrahydro-8,13,14-triol-20-ethyl-1,6,16-trimethoxy-4-methoxymethyl-8-acetoxy-14-(4′-p-methoxybenzyl)-aconitane], the “HPLC purity Area %” value is recorded as 99.53% (25° C./60% RH, 1 month, open); 99.48% (25° C./60% RH, 1 week, open); 99.47% (40° C./75% RH, 1 month, open); 99.49% (40° C./75% RH, 1 week, open); 99.34% (80° C., 24 hours, sealed). The “change of chemical purity (HPLC)” value (all selected test conditions of Table 4) was “has not changed”.
